{"source": "patent US9359622B2", "about": "“Method for biotechnological production of dihydrochalcones” (Symrise AG, priority 2012, dated 2016)", "key": {"[1]": {"tested_on": "enzymes CHI and ERED", "experiment": "Anaerobic cultivation of E. coli expressing CHI and ERED with naringenin, HPLC", "type": "cell-based, E. ramulus DSM 16296"}, "[2]": {"tested_on": "enzymes CHI and ERED", "experiment": "Anaerobic fermentation with CHI and ERED; 10 mM naringenin", "type": "cell-based, E. ramulus DSM 16296"}}, "data": [{"compound": "O=C1C[C@@H](c2ccc(O)cc2)Oc2cc(O)cc(O)c21", "note": "[Naringenin]", "values": [{"measurement": "Naringenin", "setting": "[1]; time 0.25 h", "value": 1.00, "unit": "mM"}, {"measurement": "Naringenin", "setting": "[1]; time 1.75 h", "value": 0.77, "unit": "mM"}, {"measurement": "Naringenin", "setting": "[1]; time 3.25 h", "value": 0.59, "unit": "mM"}, {"measurement": "Naringenin", "setting": "[1]; time 4.75 h", "value": 0.45, "unit": "mM"}, {"measurement": "Naringenin", "setting": "[1]; time 6.25 h", "value": 0.44, "unit": "mM"}, {"measurement": "Naringenin", "setting": "[1]; time 10.25 h", "value": 0.42, "unit": "mM"}, {"measurement": "Naringenin", "setting": "[1]; time 21.00 h", "value": 0.29, "unit": "mM"}, {"measurement": "Naringenin", "setting": "[1]; time 26.00 h", "value": 0.27, "unit": "mM"}]}, {"compound": "O=C(CCc1ccc(O)cc1)c1c(O)cc(O)cc1O", "note": "[Phloretin]", "values": [{"measurement": "Phloretin", "setting": "[1]; time 0.25 h", "value": 0.09, "unit": "mM"}, {"measurement": "Phloretin", "setting": "[1]; time 1.75 h", "value": 0.44, "unit": "mM"}, {"measurement": "Phloretin", "setting": "[1]; time 3.25 h", "value": 0.62, "unit": "mM"}, {"measurement": "Phloretin", "setting": "[1]; time 4.75 h", "value": 0.68, "unit": "mM"}, {"measurement": "Phloretin", "setting": "[1]; time 6.25 h", "value": 0.68, "unit": "mM"}, {"measurement": "Phloretin", "setting": "[1]; time 10.25 h", "value": 0.74, "unit": "mM"}, {"measurement": "Phloretin", "setting": "[1]; time 21.00 h", "value": 0.70, "unit": "mM"}, {"measurement": "Phloretin", "setting": "[1]; time 26.00 h", "value": 0.71, "unit": "mM"}, {"measurement": "Phloretin", "setting": "[2]; time 1.00 hours", "value": 0.189, "unit": "mM"}, {"measurement": "Phloretin", "setting": "[2]; time 2.00 hours", "value": 0.282, "unit": "mM"}, {"measurement": "Phloretin", "setting": "[2]; time 3.00 hours", "value": 0.404, "unit": "mM"}, {"measurement": "Phloretin", "setting": "[2]; time 4.00 hours", "value": 0.485, "unit": "mM"}, {"measurement": "Phloretin", "setting": "[2]; time 5.00 hours", "value": 0.494, "unit": "mM"}, {"measurement": "Phloretin", "setting": "[2]; time 6.00 hours", "value": 0.694, "unit": "mM"}, {"measurement": "Phloretin", "setting": "[2]; time 10.00 hours", "value": 0.821, "unit": "mM"}, {"measurement": "Phloretin", "setting": "[2]; time 22.00 hours", "value": 0.855, "unit": "mM"}, {"measurement": "Phloretin", "setting": "[2]; time 26.00 hours", "value": 0.840, "unit": "mM"}, {"measurement": "Phloretin", "setting": "[2]; time .00 hours", "value": 0.008, "unit": "mM"}]}]}
